Compound potency records, mixed from different reports. Data source: NIAID ChemDB in PubChem.

Common to all: whole-cell or culture tests; species: HIV-1; read by: cytopathic effect / XTT; measure: EC50

An empty or dashed field is not shown. Lines come from different laboratories, so protocols vary. ECn is the concentration giving n% inhibition of infection, replication or growth.

structure	changes	cells	strain	result
Cc1occc1C(=S)Nc1ccc(Cl)c(C(=O)OCC2CC2)c1	RT-D67N K70R T215Y K219Q	CEM + CEM-SS	4xAZT(RT-D67N K70R T215Y K219Q)	0.04 µM
CCCc1cc(=O)oc2c3c(c4c(c12)OC(C)(C)CC4)O[C@H](C)[C@@H](C)[C@@H]3O		CEM + CEM-SS	SK1	0.14 µM
Cc1occc1C(=S)Nc1ccc(Cl)c(C(=O)OC(C)C)c1	RT-L100I	CEM + CEM-SS	NL4-3	0.6 µM
Cn1nc(NC(=O)c2cc(N)nn2C)cc1C(=O)Nc1ccc2cc(S(=O)(=O)O)cc(S(=O)(=O)O)c2c1		CEM + CEM-SS	RF	>200 µM
FC(F)(Sc1ncccn1)c1nc2ccccc2o1	RT-P236L	CEM + CEM-SS	HEPT (RT P236L)	8.64 µM
CC(C)=CCOc1cc(NC(=S)c2ccoc2C)ccc1Cl		CEM + CEM-SS	IIIB	0.009 µM
Cc1occc1C(=S)Nc1ccc(Cl)c(/C=N/OC(C)(C)C)c1	RT-A98G	CEM + CEM-SS	NL4-3	0.7 µM
Cc1ccnc(SC(F)(F)c2nc3ccccc3o2)n1		CEM + CEM-SS	IIIB	0.067 µM
O=C(NC1CCCCC1)c1ccccc1SSc1ccccc1C(=O)NC1CCCCC1		CEM		3.7 µM
C=CCN(N=O)C(=O)N(CCC)CCCC[C@H](NC(C)=O)C(=O)NCc1ccccc1		CEM-IW + CEM	IIIB	>100 µM
CC(C)(C)[C@H](NC(=O)c1ccccc1SSc1ccccc1C(=O)N[C@H](C(=O)O)C(C)(C)C)C(=O)O		CEM	IIIB	18 µM
CC1=C(C(=O)Nc2ccc(Cl)c(C(=O)OC(C)C)c2)SCCO1		CEM + CEM-SS	RF	0.29 µM
[O-][n+]1onc2ncnc(N3CC[N+]4(CC3)CC[N+]3(CCN(c5ncnc6no[n+]([O-])c56)CC3)CC4)c21	RT-Y181C	MT-4	N119 nevirapine-resistant (RT Y181C)	31.7 µM
CCCc1cc(=O)oc2c3c(c4c(c12)OC(C)(C)CC4)O[C@@H](C)[C@H](C)[C@@H]3O	RT-V106I	CEM + CEM-SS	NL4-3	0.8 µM
COc1cc(-c2ccc(N=Nc3ccc4c(S(=O)(=O)O)cc(S(=O)(=O)O)c(N)c4c3O)c(OC)c2)ccc1N=Nc1ccc2c(S(=O)(=O)O)cc(S(=O)(=O)O)c(N)c2c1O		CEM + CEM-SS	A17	0.6 µM
C=CCN(N=O)C(=O)NCCC[C@H](NC(C)=O)C(=O)NCc1ccccc1		CEM-IW + CEM	IIIB	>100 µM
CC(C)=CCOc1cc(NC(=S)c2ccsc2C)ccc1Cl	RT-T139I	CEM + CEM-SS	Calanolide A-resistant (RT T139I)	0.03 µM
O=C(Nc1ccc(O)cc1)c1ccccc1SSc1ccccc1C(=O)Nc1ccc(O)cc1		CEM		>33 µM
CCCCCCCCCCCCCCCCNc1ccn([C@H]2C[C@H](OP(=O)(O)OC[C@H]3O[C@@H](n4cc(C)c(=O)[nH]c4=O)C[C@@H]3N=[N+]=[N-])[C@@H](CO)O2)c(=O)n1		CEM + CEM-SS		1.08 µM
CSCC[C@H](NC(=O)c1ccccc1SSc1ccccc1C(=O)N[C@@H](CCSC)C(=O)O)C(=O)O		CEM	IIIB	43 µM
CC(C)=CCN1CC(C)Cn2c(=S)[nH]c3cccc1c32	RT-Y181C	CEM(SS) + CEM-SS	N119(RT-Y181C)	>27.2 µM
CNC(=O)NCCCC[C@H](NC(C)=O)C(=O)NCc1ccccc1		CEM-IW + CEM	IIIB	>100 µM
Cn1cc([N+](=O)[O-])cc1C(=O)Nc1ccc(S(=O)(=O)O)c2cc(S(=O)(=O)O)ccc12		CEM + CEM-SS	RF	>500 µM
CC(=O)N[C@@H](CCCN)C(=O)NCc1ccccc1		CEM-IW + CEM	IIIB	>100 µM
O=C(O)C[C@H](CC1CCCCC1)NC(=O)c1ccccc1SSc1ccccc1C(=O)N[C@H](CC(=O)O)CC1CCCCC1		CEM	IIIB	6.4 µM
Nc1nc(NC2CC2)c2ncn([C@H]3C=C[C@@H](CO)C3)c2n1		C8166	RT-L74V M184V	20 µM
COc1cc(-c2ccc(N=Nc3ccc4c(S(=O)(=O)O)cc(S(=O)(=O)O)c(N)c4c3O)c(OC)c2)ccc1N=Nc1ccc2c(S(=O)(=O)O)cc(S(=O)(=O)O)c(N)c2c1O		CEM + CEM-SS	McK	0.6 µM
Cn1cc(NC(=O)Nc2cc(C(=O)Nc3cc(C(=O)Nc4ccc(P(=O)(O)O)c5cc(P(=O)(O)O)ccc45)n(C)c3)n(C)c2)cc1C(=O)Nc1cc(C(=O)Nc2ccc(P(=O)(O)O)c3cc(P(=O)(O)O)ccc23)n(C)c1		CEM + CEM-SS	RF	3.9 µM
CNC(=O)c1ccccc1SSc1ccccc1C(=O)NC		CEM		>11 µM
C=CCN(N=O)C(=O)N(CCCC[C@H](NC(C)=O)C(=O)NCc1ccccc1)Cc1ccccc1		CEM-IW + CEM	IIIB	>100 µM
O=C(NC(CC1CCCC1)C(=O)O)c1ccccc1SSc1ccccc1C(=O)NC(CC1CCCC1)C(=O)O		CEM	IIIB	8.3 µM
C=CC[C@H](NC(=O)[C@H](Cc1ccccc1)NS(=O)(=O)N1CCOCC1)C(=O)N[C@@H](CC1CCCCC1)[C@@H](O)C[C@H](C(=O)NCCCC)C(C)C		MT-2	IIIB	2.7 µM
COc1ccccc1C(=O)Nc1ccc(Cl)c(C(=O)OC(C)C)c1		CEM + CEM-SS	RF	1.3 µM
CCCCCCCCCCCCCCCC(=O)Nc1ccn([C@H]2CC[C@@H](COP(=O)(O)O[C@H]3C[C@H](n4cc(C)c(=O)[nH]c4=O)O[C@@H]3CO)O2)c(=O)n1		CEM + CEM-SS		0.0763 µM
CC1=C(C(=S)Nc2ccc(Cl)c(C(=O)OC(C)C)c2)SCCO1		CEM + CEM-SS	RF	0.024 µM
CC(C)(C)NC(=O)c1ccccc1SSc1ccccc1C(=O)NC(C)(C)C		CEM		58 µM
CN1N=C(N)c2cn([C@@H]3O[C@H](COP(=O)(O)O)[C@@H](O)[C@H]3O)c3ncnc1c23		CEM + CEM-SS	C	0.06 µM
CC(C)C[C@@H](CO)NC(=O)c1ccccc1SSc1ccccc1C(=O)N[C@H](CO)CC(C)C		CEM		>12 µM
Cn1cc(NC(=O)c2cc(N)nn2C)cc1C(=O)Nc1ccc2cc(S(=O)(=O)O)cc(S(=O)(=O)O)c2c1		CEM + CEM-SS	RF	>200 µM
CNC(=O)NCCC[C@H](NC(C)=O)C(=O)NCc1ccccc1		CEM-IW + CEM	IIIB	>100 µM
CN(C)C1=C(C#N)/C(=C2/C(C#N)=C(N(C)C)N(c3ccc([N+](=O)[O-])cc3)c3c2n(C)c2ccccc32)c2c(c3ccccc3n2C)N1c1ccc([N+](=O)[O-])cc1	RT-P236L	CEM + CEM-SS	HEPT-resistant (RT P236L)	0.97 µM
O=C(N[C@@H](CCc1ccccc1)C(=O)O)c1ccccc1SSc1ccccc1C(=O)N[C@@H](CCc1ccccc1)C(=O)O		CEM	IIIB	6 µM
C=CCN(N=O)C(=O)NCCCC[C@H](NC(C)=O)C(=O)NCc1ccccc1		CEM-IW + CEM	IIIB	>100 µM
Cn1cc(NC(=O)Nc2cc(C(=O)Nc3cc(C(=O)Nc4ccc(S(=O)(=O)O)c5cc(S(=O)(=O)O)ccc45)n(C)c3)n(C)c2)cc1C(=O)Nc1cc(C(=O)Nc2ccc(S(=O)(=O)O)c3cc(S(=O)(=O)O)ccc23)n(C)c1		MT-4	N119(NEV-R)	1.2 µM
CC(C)(C)c1ccc(NC(=O)c2ccccc2SSc2ccccc2C(=O)Nc2ccc(C(C)(C)C)cc2)cc1		CEM		10 µM
C=CCNC(=O)N(CCCC[C@H](NC(C)=O)C(=O)NCc1ccccc1)Cc1ccccc1		CEM-IW + CEM	IIIB	>100 µM
CC=CCOc1cc(NC(=S)c2ccoc2C)ccc1OC	RT-D67N K70R Y181C T215Y K219Q	CEM + CEM-SS	4XAZT/Y181C (RT D67N K70R Y181C T215Y K219Q)	4.2 µM

5 of the rows above, restated:

{"structure": "C=CCNC(=O)N(CCCC[C@H](NC(C)=O)C(=O)NCc1ccccc1)Cc1ccccc1", "cells": "CEM-IW + CEM", "strain": "IIIB", "result": ">100 µM"}
{"structure": "CC1=C(C(=S)Nc2ccc(Cl)c(C(=O)OC(C)C)c2)SCCO1", "cells": "CEM + CEM-SS", "strain": "RF", "result": "0.024 µM"}
{"structure": "O=C(NC(CC1CCCC1)C(=O)O)c1ccccc1SSc1ccccc1C(=O)NC(CC1CCCC1)C(=O)O", "cells": "CEM", "strain": "IIIB", "result": "8.3 µM"}
{"structure": "O=C(O)C[C@H](CC1CCCCC1)NC(=O)c1ccccc1SSc1ccccc1C(=O)N[C@H](CC(=O)O)CC1CCCCC1", "cells": "CEM", "strain": "IIIB", "result": "6.4 µM"}
{"structure": "CC(C)(C)NC(=O)c1ccccc1SSc1ccccc1C(=O)NC(C)(C)C", "cells": "CEM", "result": "58 µM"}